# The entries are a selection whose mix differs from that of the whole data set. The source made the active and inactive calls. Cut-off read from the data, not from the text of the source: active = inhibition above about 30%; inconclusive = no clear call, values can overlap the other calls; inactive = below that.
# Amino acid sequences for entries named in this document (tags omitted).
# UniProt P9WHJ3, whole entry: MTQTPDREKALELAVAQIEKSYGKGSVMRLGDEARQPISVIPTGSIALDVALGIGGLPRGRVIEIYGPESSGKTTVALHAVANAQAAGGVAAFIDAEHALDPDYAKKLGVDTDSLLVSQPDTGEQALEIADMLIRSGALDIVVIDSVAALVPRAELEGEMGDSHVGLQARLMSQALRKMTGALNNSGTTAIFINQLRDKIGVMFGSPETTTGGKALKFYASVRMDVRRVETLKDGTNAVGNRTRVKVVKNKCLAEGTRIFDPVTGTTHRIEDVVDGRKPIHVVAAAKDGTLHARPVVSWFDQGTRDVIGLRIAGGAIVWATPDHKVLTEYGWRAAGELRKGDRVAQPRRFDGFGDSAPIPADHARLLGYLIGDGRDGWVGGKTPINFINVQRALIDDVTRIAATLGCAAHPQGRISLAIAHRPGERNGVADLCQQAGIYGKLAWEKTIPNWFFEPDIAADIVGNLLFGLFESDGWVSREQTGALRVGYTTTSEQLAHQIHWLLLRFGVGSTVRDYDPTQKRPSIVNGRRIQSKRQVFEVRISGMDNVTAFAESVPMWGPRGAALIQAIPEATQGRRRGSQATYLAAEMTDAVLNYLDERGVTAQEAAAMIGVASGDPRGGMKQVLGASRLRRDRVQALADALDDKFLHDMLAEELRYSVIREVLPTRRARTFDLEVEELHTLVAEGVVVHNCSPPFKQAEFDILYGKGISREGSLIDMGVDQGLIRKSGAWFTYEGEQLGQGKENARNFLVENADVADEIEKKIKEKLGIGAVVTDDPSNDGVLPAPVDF
# Target: Protein RecA (Mycobacterium tuberculosis (strain ATCC 25618 / H37Rv)) (UniProt P9WHJ3)
# Assay: Mtb RecA intein splicing inhibitors, primary screen, biochemical, fluorescence, HTS (AID 2221);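 note: 0% = vehicle wells and 100% = reference inhibitor control wells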
# Details: cell-free RecA intein splicing, hits give high values, concentration not given here
row,Compound,inhibition
1,COc1ccccc1OP(C)(=O)Nc1ccccc1 (stereo not drawn),inactive: 1.91%
2,Cc1cc(SC(NC=O)C(Cl)(Cl)Cl)ncn1 (stereo not drawn),inactive: -2.68%
3,O=P(Nc1ccccn1)(c1cccc2ccccc12)c1cccc2ccccc12,inactive: -1.62%
4,CCOC(=O)Nc1cccc([As](=O)(O)O)c1,inactive: 1.59%
5,CP(=S)(Nn1cnnc1)Oc1ccccc1 (stereo not drawn),inactive: 1.77%
6,O=C(Nc1ccncc1[N+](=O)[O-])c1ccc([N+](=O)[O-])cc1[N+](=O)[O-],inactive: -1.34%
7,Cc1cc(C)cc(OP(C)(=O)Nc2ccc(SC(F)(F)F)cc2)c1 (stereo not drawn),inactive: -0.533%
8,CCc1ccc(OP(C)(=O)N2CCN(c3ccc([N+](=O)[O-])cc3)CC2)cc1 (stereo not drawn),inactive: 4.32%
9,CP(=O)(NC(=O)Nc1ccccc1)Oc1ccccc1 (stereo not drawn),inactive: 1.14%
10,O=C(COc1ccccc1)OC1CN2CCC1CC2 (stereo not drawn),inactive: -1.75%
11,CP(=O)(Oc1ccccc1)OC(c1ccccc1)C(F)(F)F (stereo not drawn),inactive: 0.348%
12,Cc1cccc(C)c1OP(C)(=O)Nc1ccc(SC(F)(F)F)cc1 (stereo not drawn),inactive: 4.16%
13,COP1(=S)c2c(C)nn(CCC#N)c2N=C(c2ccc(F)cc2)N1C (stereo not drawn),inactive: -1.72%
14,CP(=O)(Nc1ccccn1)Oc1ccc(Cl)cc1 (stereo not drawn),inactive: 0.597%
15,CCC(C)N(CC(C)C)C(=S)SC(NC(C)=O)C(Cl)(Cl)Cl (stereo not drawn),inactive: -20.9%
16,O=[N+]([O-])c1cc([N+](=O)[O-])c(O)c([N+](=O)[O-])c1.c1ccc(Oc2ccncc2)cc1,inactive: 8.86%
17,CCOC(=O)c1ccc(NC(=O)C(C)(CCl)SC)cc1 (stereo not drawn),inactive: -2%
18,CCOC(=O)c1ccc(NP(C)(=O)Oc2ccc(OC)cc2)cc1 (stereo not drawn),inactive: 1.99%
19,O=C(OC1CN2CCC1CC2)c1cccc([N+](=O)[O-])c1 (stereo not drawn),inactive: -3.82%
20,CCOP(C)(=S)SCC(=O)NC(C)C(=O)O (stereo not drawn),inactive: 1.15%
21,CC(C)(C)C(=O)NC(Sc1ncccn1)C(Cl)(Cl)Cl (stereo not drawn),inactive: -2.41%
22,Clc1n[nH]nc1-c1nn[nH][15n]1,inactive: -0.719%
23,CN(CCCl)Cc1cc(Cl)c(NC2=NCCN2)c(Cl)c1,inactive: -0.439%
24,CCOP(=O)(Nc1ccc(C)cn1)OCC,inactive: 0.567%
25,CCOP(=O)(NC(=NC(C)c1ccccc1)NC(C)c1ccccc1)OCC (stereo not drawn),inactive: 4.84%
26,CCC1=CC2Cc3nc4ccc(Cl)cc4c(N)c3C(C1)C2 (stereo not drawn),inactive: 2.2%
27,O=P1(Nc2ccccn2)COc2ccccc2OC1,inactive: -0.31%
28,CC1(CBr)Cn2c(nc3ccccc3c2=O)S1 (stereo not drawn),inactive: -0.744%
